Source: patent US20250115943A1, “SYSTEM AND METHOD FOR ANTIMICROBIAL SUSCEPTIBILITY TESTING” (priority 2023, published 2025)

Legend:
Assay in all cases: CytoSPAR BLAST antibiotic susceptibility test
Format in all cases: cell-based
[1] = tested on: P. mirabilis LSI 4933; conditions: Table 7
Text: (§1) The disclosed technology, which is referred to as the CytoSPAR BLAST (Bacteria Labeling Antibiotic Susceptibility Test) system, is used to quantitatively assess bacterial minimal inhibitory concentration of antibiotics for in vitro susceptibility testing. Used as an aid in diagnosis for clinicians in determining potential treatment options for patients suspected of having a microbial infection, BLAST is intended to determine susceptibility of microorganisms to the listed antibiotics (or other antimicrobials) according to manufacturer's standards. The system is intended for use with clinical isolates from liquid culture and colonies grown on agar (solid medium) or directly from urine samples. Certain implementations of BLAST determine antibiotic susceptibility for a wide range of bacteria obtained from various types of patient samples, including samples from individuals suffering from urinary tract infections. The disclosed technology includes a high-throughput assay that directly detects bacterial susceptibility to a library of frequently used antibiotics and covers both Gram-negative and Gram-positive bacteria.
(§2) The test incorporates a non-canonical amino acid (ncAA) into newly produced proteins. The incorporated ncAA includes a reactive group which allows a specific modification and detection of the living bacteria. The assay involves bacterial incorporation of the ncAA, a chemical reaction between a reactive group and a fluorophore-tagged ligand, and detection of the newly fluorescent-tagged bacteria using a fluorescent plate reader or functionally similar device. The ncAA is added to bacterial growth media and is incorporated into newly synthesized bacterial proteins. The reactive groups on the ncAA are not naturally found in bacteria and act as a specific reactive group for bacteria undergoing active protein synthesis. […] The entire process is performed in a microtiter filter plate for high-throughput scale-up. Alternatively, a normal 96-well plate can also be used in which case centrifugation is used to wash the plate instead of filtration.
(§3) In an example embodiment, bacterial samples are first diluted and incubated in acclimatization media. After treatment with one or more antimicrobials, the ncAA is added and is taken up by living bacteria during protein biosynthesis in a process called labeling. […] The Click-Chemistry reaction between the alkyne group of the ncAA and the azide group of the fluorophore-tagged ligand requires the presence of copper in the reduced state-copper (I). In other implementations, the functional groups of the click chemistry reaction can be changed so that the ncAA has the azide group and the dye has the alkyne group. […] Other reducing agents may be used in the BLAST assay, for example, aldoses (sugars) including glyceraldehyde, glucose, and ribose to replace sodium ascorbate. Likewise, alternate chelators may be used (e.g., histidine in place of BTTAA). In some implementations, metal-free click chemistry reactions are performed without using copper.
(§4) Using the BLAST system, tests can be performed on isolates or direct urine samples. Isolates may be from urine, blood, or other body fluids. Isolated bacteria may be either Gram-positive or Gram-negative. In an example implementation, living bacterial samples in acclimatization media (Buffer A) are distributed in a microtiter filter plate, wherein certain predetermined wells include antibiotics of interest at different concentrations. These antibiotics are arrayed with increasing concentrations in adjacent wells so that the bacterial response can be measured against each specific concentration. The response is measured quantitatively, and a value that corresponds to the ability of the bacteria to metabolize and grow is measured.

[2] = tested on: P. mirabilis LSI 4698; conditions: Table 7
Text: as §1, §2, §3, §4

[3] = tested on: E. coli ATCC 25922; conditions: for Dilution Difference (BLAST-rBMD): Table 7; for Dilution Difference (BLAST-rBMD) Isolates / Dilution Difference (BLAST-rBMD) Spiked Urine: Table 8
Text: as §1, §2, §3, §4

[4] = tested on: E. coli LSI 770; conditions: for Dilution Difference (BLAST-rBMD): Table 7; for Dilution Difference (BLAST-rBMD) Isolates / Dilution Difference (BLAST-rBMD) Spiked Urine: Table 8
Text: as §1, §2, §3, §4

[5] = tested on: S. aureus ATCC 29213; conditions: for Dilution Difference (BLAST-rBMD): Table 7; for Dilution Difference (BLAST-rBMD) Isolates / Dilution Difference (BLAST-rBMD) Spiked Urine: Table 8

SMILES | Dilution Difference (BLAST-rBMD) [1] | Dilution Difference (BLAST-rBMD) [2] | Dilution Difference (BLAST-rBMD) [3] | Dilution Difference (BLAST-rBMD) Isolates [3] | Dilution Difference (BLAST-rBMD) Spiked Urine [3] | Dilution Difference (BLAST-rBMD) [4] | Dilution Difference (BLAST-rBMD) Isolates [4] | Dilution Difference (BLAST-rBMD) Spiked Urine [4] | Dilution Difference (BLAST-rBMD) [5] | Dilution Difference (BLAST-rBMD) Isolates [5] | Dilution Difference (BLAST-rBMD) Spiked Urine [5]
Cc1nnc(SCC2=C(C(=O)O)N3C(=O)[C@@H](NC(=O)Cn4cnnn4)[C@H]3SC2)s1 [Cefazolin, cefazolin] | −1 | −2 | −1 | 1 | −1 | both off-scale | both off-scale | both off-scale | −2 | −2 | −1
C[C@H]1c2cccc(O)c2C(=O)C2=C(O)[C@]3(O)C(=O)C(C(N)=O)=C(O)[C@@H](N(C)C)[C@@H]3[C@@H](O)[C@@H]21 [Doxycycline, doxycycline] | −2 | −3 | −2 | −2 | −1 | 0 | 0 | 0 | −2 | −2 | −2
C[C@H]1COc2c(N3CCN(C)CC3)c(F)cc3c(=O)c(C(=O)O)cn1c23 [Levofloxacin, levofloxacin] | 0 | −1 | −1 | −1 | −1 | 0 | 0 | 0 | 0 | 0 | 0
